Molecules are shown by their SMILES. The list shows a part of the results, in another mix than the full data. Active and inactive are the calls of the source. Cut-off read from the data, not from the text of the source: active = activation above about 8.9%; inactive = the rest.

In the assay the test system is HIV-1 integrase (multimerization). Nature of the assay: stimulation of HIV-1 integrase oligomerization – biochemical, TR-FRET, counter-screen for LEDGF/p75 integration inhibitor project (AID 1053131). Conditions: TR-FRET HIV-1 integrase multimerization, at 7.7 µM, stronger effect = higher value. (In general: Time-resolved FRET reads energy transfer from a long-lived donor to a nearby acceptor.)
For the molecule `CCOC(=O)c1ccc(NP(C)(=O)Oc2ccc(Cl)cc2)cc1` (stereo unspecified), the activation was inactive: -0.23%.

(Values after PubChem BioAssay AID1053131 (The Scripps Research Institute Molecular Screening Center, 2014).)
